Pooled drug test results. Numbers come from NIAID ChemDB, via PubChem.

Shared fields: whole-cell or culture tests; organism: HIV-1

Neighbouring rows are from separate reports. Blank or dashed fields: not listed here. ECn is the concentration giving n% inhibition of infection, replication or growth.

structure,cells,strain or isolate,read-out,method,mutations,result
CCNC(=O)[C@@H](NC(=O)Cc1ccccc1)[C@@H]1N[C@@H](C(=O)NCCNC(=O)[C@@H]2N[C@@H]([C@H](NC(=O)Cc3ccccc3)C(=O)NCC)SC2(C)C)C(C)(C)S1,MT-4,RF,EC50,syncytia,-,1.1 µM
O=C(O)C(=O)CC(=O)c1cc(OCc2ccccc2)cc(OCc2ccccc2)c1,MT-4,IIIB,EC50,RT activity,-,>10 µM
CCN1C(=O)C(C)N(CC=C(C)C)S(=O)(=O)c2cc(Cl)ccc21,MT-4,IIIB,EC50,cytopathic effect / MTT,-,>62 µM
CC(C)(C)NC(=O)[C@@H]1C[C@@H]2CCCC[C@@H]2CN1C[C@@H](O)[C@H](Cc1ccccc1)NC(=O)[C@H](CC(N)=O)NC(=O)c1ccc2ccccc2n1,MT-2,LAI,EC50,MTT,-,0.021 µM
O=C1N(Cc2ccc3[nH]ncc3c2)[C@H](Cc2ccccc2)[C@H](O)[C@@H](O)[C@@H](Cc2ccccc2)N1Cc1ccc2[nH]ncc2c1,MT-2,RF,EC50,-,-,<0.008 µM
CCc1cc(NCc2nc3c(C)ccc(C)c3o2)c(=O)[nH]c1C,MT-4,A17,EC95,p24,-,25 µM
CC(=O)N1CCC(C(=O)N(CCCN2CCC(Cc3ccc(C(N)=O)cc3)CC2)c2ccc(C)c(Cl)c2)CC1,U87 (CD4+ CCR5+) + U87,R5 subtype A_2 recombinant,EC50,luciferase,-,0.014 µM
C[C@@H]1O[C@H]2OCCC[C@H]2[C@H]1OC(=O)N[C@@H](Cc1ccccc1)[C@H](O)CN1C[C@H]2CCCC[C@H]2C[C@H]1C(=O)NC(C)(C)C,PBMC,TM,EC50,p24,PR-L10I K14R R41K M46I I54V L63P A71V V82A L90M I93L,>1 µM
CCN1C(=O)c2cccn2-c2ccc(Cl)cc2S1(=O)=O,MT-4,IIIB,EC50,cytopathic effect / MTT,-,35 µM
O=C1Nc2ccc(Cl)cc2S(=O)(=O)c2c[nH]cc21,CEM + MT-4,-,EC50,cytopathic effect / MTT,-,10 µM
CC1(C)S[C@H]([C@H](NC(=O)Cc2ccccc2)C(=O)NCc2ccccc2)N[C@H]1C(=O)N[C@H](Cc1ccccc1)[C@H](O)CC(=O)NCc1ccccc1,MT-4,RF,EC50,cytopathic effect,-,4.7 µM
Cc1ccnc2c1NC(=O)c1cccnc1N2C1CC1,MT-4,rA17,EC50,p24,-,<100 µM
c1ccc2c(c1)sc1nccn12,U-937,IIIB,EC50,cytopathic effect / XTT,-,0.59 µM
Cc1cc(C)c(Nc2nc(Nc3ccc(C#N)cc3)ncc2Cl)c(C)c1,MT-4,LAI WT,EC50,cytopathic effect / MTT,-,0.003 µM
CCOCn1c(Cc2ccccc2)c(C(C)C)c(=O)[nH]c1=O,CEM,C-1 (RT-K101E),EC50,cytopathic effect,RT-K101E,0.0082 µg/mL
Cc1ccccc1Cn1cc2c(c1)S(=O)(=O)c1cc(Cl)ccc1NC2=O,MT-4,IIIB,EC50,cytopathic effect / MTT,-,>200 µM
COc1ccc(S(=O)(=O)N(CC(C)C)C[C@@H](O)[C@H](Cc2ccccc2)NC(=O)O[C@H]2CO[C@H]3OCC(F)(F)[C@H]32)cc1,MT-4,NL4-3,EC50,-,L10I G48V I54V A71V I84V L90M SQV resistant,0.13 µM
O=S1(c2ccccc2)=NC(=S)Nc2ccccc21,AA5,IIIB,EC50,cytopathic effect / XTT,-,2.88 µM
CCOC(=O)c1cn(CC=C(C)C)cc1S(=O)(=O)c1cc(Cl)ccc1NCC=C(C)C,MT-4,IIIB,EC50,cytopathic effect / MTT,-,>200 µM
C=C(C)COCn1c(Cc2cc(C)cc(C)c2)c(CC)c(=O)[nH]c1=O,MT-4,HXB2,EC50,cytopathic effect / MTT,-,0.05 µM
CC(C)=CCN1Cc2cccc3[nH]c(=S)n(c23)C[C@@H]1C,Macrophage,IIIB,EC50,cytopathic effect / XTT,-,0.1 µM
CCOC(=O)c1cn(C)cc1S(=O)(=O)c1cc(Cl)ccc1N,C8166,Clinical isolate,EC50,cytopathic effect / MTT,RT-K103N,≥30 µM
CC(C)=CCOCn1c(Cc2cc(C)cc(C)c2)c(C(C)C)c(=O)[nH]c1=O,MT-4,IIIB,EC50,cytopathic effect / MTT,RT-K103N Y181C,26 µM
C=C(C)OC(=O)N1c2cc(Cl)ccc2NC(=S)C1(C)C,H9,B9 (RT L100I V106A G190A),EC50,p24,RT-L100I V106A G190A,>10 µg/mL
CCN1C(c2c(Cl)cccc2Cl)c2cccn2-c2ccc(Cl)cc2S1(=O)=O,MT-4,IIIB,EC50,cytopathic effect / MTT,-,>4.8 µM
CC(C)CN(C[C@@H](O)[C@H](Cc1ccccc1)NC(=O)O[C@H]1CCOC1)S(=O)(=O)c1ccc(N)cc1,PBMC,TM,EC50,p24,PR-L10I K14R R41K M46I I54V L63P A71V V82A L90M I93L,0.48 µM
O=C(CNC(=O)C(=O)/C=C(\O)c1cccn1Cc1ccc(F)cc1)OC[C@@H]1C=C[C@H](n2ccc(=O)[nH]c2=O)O1,CEM + CEM-SS,LAI,EC50,RT activity,-,>10 µM
CC[C@H]1C(=O)Nc2ccc(F)cc2N1C(=O)OC(C)C,CEM,B-1 (RT L100V K103R/K Y188H),EC50,cytopathic effect,RT-L100V K103R/K Y188H,0.0082 µg/mL
O=C(CNC(=O)C(=O)/C=C(\O)c1cccn1Cc1ccc(F)cc1)OC[C@@H]1CC[C@H](n2ccc(=O)[nH]c2=O)O1,MT-4,IIIB,EC50,RT activity,-,>10 µM
CCOC(=O)c1c[nH]cc1S(=O)(=O)c1cc(Cl)ccc1N,MT-4,IIIB,EC50,cytopathic effect / MTT,-,1.3 µM
C[C@H]1O[C@@H]2OCCC[C@@H]2[C@@H]1OC(=O)N[C@@H](Cc1ccccc1)[C@H](O)CN1C[C@H]2CCCC[C@H]2C[C@H]1C(=O)NC(C)(C)C,PBMC,MM,EC50,p24,PR-L10I K43T M46I I54V L63P A71V V82A L90M Q92K,>1 µM
CC(C)=CCn1cc2c(c1)S(=O)(=O)c1cc(Cl)ccc1NC2=S,C8166,Clinical isolate,EC50,cytopathic effect / MTT,RT-K103N,≥30 µM
O=[N+]([O-])c1ccccc1S(=O)(=O)c1ccccc1,AA5,IIIB,EC50,cytopathic effect / XTT,-,2.13 µM
O=C1N(Cc2ccc3[nH]c(=O)sc3c2)[C@H](Cc2ccccc2)[C@H](O)[C@@H](O)[C@@H](Cc2ccccc2)N1Cc1ccc2[nH]c(=O)sc2c1,MT-2,RF,EC50,-,-,<0.109 µM
CC(C)CN(C[C@@H](O)[C@H](Cc1ccccc1)NC(=O)O[C@H]1CCOC1)S(=O)(=O)c1ccc(N)cc1,MT-4,NL4-3,EC50,-,L23I E34Q K43I M46I I50L G51A L63P A71V V82A T91A ATV resistant,>1 µM
CC(C)Nc1cccnc1N1CCN(C(=O)c2cc3cc(NS(C)(=O)=O)ccc3[nH]2)CC1,CEM,J-2 (RT-Y181C),EC50,cytopathic effect,RT-Y181C,0.0075 µg/mL
O=C1N(Cc2ccc3n[nH]nc3c2)[C@H](Cc2ccccc2)[C@H](O)[C@@H](O)[C@@H](Cc2ccccc2)N1Cc1ccc2n[nH]nc2c1,MT-2,RF,EC50,-,-,<0.53 µM
CCN1C(c2ccccc2)c2cccn2-c2ccc(Cl)cc2S1(=O)=O,MT-4,IIIB,EC50,cytopathic effect / MTT,-,>7.4 µM
Cc1cn([C@H]2C=C[C@@H](COC(=O)CCNC(=O)C(=O)/C=C(\O)c3cccn3Cc3ccc(F)cc3)O2)c(=O)[nH]c1=O,CEM + CEM-SS,LAI,EC50,RT activity,-,5 µM
CCOCn1c(Cc2ccccc2)c(C(C)C)c(=O)[nH]c1=O,MT-4,HXB2,EC50,cytopathic effect / MTT,-,0.01 µM
CC(C)CN(C[C@@H](O)[C@H](Cc1ccccc1)NC(=O)[C@@H](NC(=O)CNCc1cccc(F)c1)C(C)(C)C)S(=O)(=O)c1ccc(N)cc1,PBMC,IIIB,EC50,virus yield,-,<0.04 µM
Nc1nc2ccc(CN3C(=O)N(Cc4ccc5nc(N)sc5c4)[C@H](Cc4ccccc4)[C@H](O)[C@@H](O)[C@H]3Cc3ccccc3)cc2s1,MT-2,RF,EC50,-,-,<0.27 µM
COc1cc(C(=O)Sc2ccccc2C(=O)NCCC(N)=O)cc(OC)c1OC,MT-4,IIIB,EC50,luminescence,-,2.2 µM
O=C1N(Cc2ccc3[nH]c(=S)oc3c2)[C@H](Cc2ccccc2)[C@H](O)[C@@H](O)[C@@H](Cc2ccccc2)N1Cc1ccc2[nH]c(=S)oc2c1,MT-2,RF,EC50,-,-,<5.1 µM
Cc1cccc(C)c1OCC(=O)N[C@@H](Cc1ccccc1)[C@@H](O)C[C@H](Cc1ccccc1)NC(=O)[C@H](C(C)C)N1CCCNC1=O,PBMC,HXB2,EC50,p24,PR-M46I I47V I50V,<0.255 µM
Nc1nc2ccc(CN3C(=O)N(Cc4ccc5nc(N)oc5c4)[C@H](Cc4ccccc4)[C@H](O)[C@@H](O)[C@H]3Cc3ccccc3)cc2o1,MT-2,RF,EC50,-,-,<0.084 µM
N#Cc1ccc(Nc2nc(N)nc(Cc3c(Cl)cccc3Cl)n2)cc1,MT-4,NNRTI-resistant (RT L100I K103N),EC50,cytopathic effect / MTT,RT-L100I K103N,>10 µM
CC(C)Nc1cccnc1N1CCN(C(=O)c2cc3cc(NS(C)(=O)=O)ccc3[nH]2)CC1,H9,B8 (RT K101I K103N Y181C G190A),EC50,p24,RT-K101I K103N Y181C G190A,>10 µg/mL
O=C1CNc2cc(CN3C(=O)N(Cc4ccc5c(c4)NCC(=O)N5)[C@H](Cc4ccccc4)[C@H](O)[C@@H](O)[C@H]3Cc3ccccc3)ccc2N1,MT-2,RF,EC50,-,-,<7.7 µM
CC(C)=CCN1Cc2cccc3[nH]c(=S)n(c23)C[C@@H]1C,MT-4,rA17,EC95,p24,-,100 µM